Test results from paper doi:10.64898/2025.12.30.696991 (bioRxiv, 2026).

Tested on: proteins of S. Typhimurium-infected RAW 264.7 cell lysate
Experiment: Proteomic analysis via affinity capture (compound-conjugated agarose beads, LC-MS/MS)
Set-up: species or system Mus musculus
Conditions: Log2 fold-change >2 and p < 0.05
[1] = experiment 1 (341: the one experiment)

NCC(=O)Nc1ccc(-n2nc(C(F)(F)F)cc2C2CCCCC2)cc1 [Compound 341]
proteins enriched on compound-beads compared to control beads [1]: 316 proteins

FC(F)(F)c1cc(C2CCCCC2)n(-c2ccc(OC3CCNCC3)cc2)n1 [Compound 370]
proteins enriched on compound-beads compared to control beads [1]: 1,254 proteins | proteins enriched on compound-beads compared to control beads (experiment 2): 354 proteins
